The values below are quoted from earlier work in publication PMC3315515, “Identification of Novel Mt-Guab2 Inhibitor Series Active against M. tuberculosis” (PLoS ONE, 2012).

Read-outs that look alike come from different tables or passages of the source. Bounds are passed on as bounds.

For the data set, the system named is vero cell. The conditions noted are these: cited from earlier work.
Setting [1] is: Table 2, values without footnote a, SI = EC50/IC90, previous screens ref [35]–[37].
Where [2] appears, read: Table 2, values with footnote a, ref Reynolds et al., 2011.

For `O=C(Nc1nnc(-c2ccc(Cl)s2)o1)c1nc2ccccc2s1` [F1374-1083], under setting [1], the SI is more than 8.31.

Take `CCOc1cc(-c2nnc(NC(=O)c3cc4ccccc4cc3OC)o2)cc(OCC)c1OCC` [F2517-0198]: the SI under setting [1] is reported as 3.84.

In the case of `COc1ccc(OC(C)C(=O)Nc2ccc(I)cc2)cc1` (stereo not shown) [compound 7759844], the SI (Table 1, SI = EC50/IC90, vero cell cytotoxicity to anti-TB activity, ref [37]) is listed as more than 23.70.

`O=C(Nc1nnc(-c2cccs2)o1)c1nc2ccccc2s1` [F1374-0978]: under setting [2], the SI is listed as 4.6 ^a.

For `Cc1ccc(-c2nnc(NC(=O)c3nc4ccccc4s3)o2)c(C)c1` [F2518-0183], the SI under setting [2] was 17 ^a.

On to `Cc1ccc(C)c(-c2nnc(NC(=O)C3COc4ccccc4O3)o2)c1` (stereo not shown) [F2518-0401], for which, under setting [1], the SI was 12.51.

As for `O=C(Nc1nnc(-c2ccccc2Cl)o1)c1nc2ccccc2s1` [F1374-0033], the SI under setting [1] is 7.89.

Consider `Cc1ccc(-c2nnc(NC(=O)COc3ccccc3)o2)c(C)c1` [F2518-0274], for which the SI under setting [1] is recorded as 5.11.

Regarding `COc1cc2ccccc2cc1C(=O)Nc1nnc(-c2ccc(F)cc2)o1` [F1374-0205], the SI under setting [1] is 3.43.

For the compound `O=C(Nc1nnc(-c2ccc(Br)cc2)o1)c1sc2ccccc2c1Cl` [F2518-0484], the SI under setting [1] is reported as more than 5.97.

Take `Cc1ccc(C)c(-c2nnc(NC(=O)COc3ccccc3)o2)c1` [F2518-0418]: under setting [1], the SI is 8.20.

In the case of `CC(C)c1ccc(OCC(=O)Nc2nccs2)cc1` [F1685-0077], under setting [1], the SI is more than 5.81.

As to `COc1cc2ccccc2cc1C(=O)Nc1nnc(-c2cc(C)ccc2C)o1` [F2518-0413], the SI under setting [1] was 6.67.

With `O=C(Nc1nnc(-c2ccccc2)o1)c1cc(-c2cccs2)nc2ccccc12` [F1374-0885], under setting [1], the SI is on record as 6.55.

Consider `COc1ccccc1-c1nnc(NC(=O)c2sc3ccccc3c2Cl)o1` [F1374-0253], for which, under setting [1], the SI is recorded as more than 7.55.

In the case of `O=C(CS(=O)(=O)c1ccccc1)Nc1nc(-c2ccc3c(c2)CCCC3)cs1` [F2536-1573], the SI under setting [1] is listed as 6.68.
